Measured values from ChEMBL document CHEMBL4406897 (Bioorg Med Chem, 2019).

Legend:
[1] = tested on: Plasmodium falciparum; experiment: Selectivity ratio of Ki for Plasmodium falciparum dihydrofolate reductase N51I/C59R/S108N/I164L quadruple mutant expressed in Escherichia coli BL21(DE3)pLysS to Ki for wild type Plasmodium falciparum TM4/8.2 dihydrofolate reductase expressed in Escherichia coli BL21(DE3)pLysS
[2] = tested on: Plasmodium falciparum; experiment: Ratio of compound Ki to pyrimethamine Ki for competitive inhibition of Plasmodium falciparum dihydrofolate reductase N51I/C59R/S108N/I164L quadruple mutant expressed in Escherichia coli BL21(DE3)pLysS using dihydrofolate as substrate

Q: What does the source list for `Cl.Nc1nc(N)c(-c2ccccc2)c(CCCCCOc2ccccc2)n1`?
A: Ratio Ki [1]: 12; Ratio Ki [2]: 0.009

Q: Which results are given for `Cl.Nc1nc(N)c(-c2cccc(Cl)c2)c(CCCOc2ccccc2)n1`?
A: Ratio Ki [1]: 4.83; Ratio Ki [2]: 0.003

Q: Which Ratio Ki [1] does the source give for `Cl.Nc1nc(N)c(-c2ccccc2)c(CCCCOc2cccc(OCC(=O)O)c2)n1` here?
A: Its Ratio Ki is 2.08.

Q: What about the Ratio Ki [2] of the same molecule?
A: The Ratio Ki was 0.003.
